Publication PMC9678781

Target: SARS-CoV-2 RBD-SD1 (aa 319-591), 8xHis-tagged (SARS-CoV-2) (UniProt P0DTC2)
Experiment: FACS

CR3022-scFv
Kd: 33 nM
